Measured values from several laboratories, pooled; numbers as filed in NIAID ChemDB.

Common to all: growth or infection tests; agent: HIV-1; read-out: EC50

Lines come from different laboratories, so protocols vary. Blank or dashed fields: not listed here. ECn: concentration that inhibits the pathogen or its effect by n%.

Cc1ccnc2c1NC(=O)c1cccnc1N2C1CC1 ; strain or isolate: NL4-3 (RT V108I) ; changes: RT-V108I ; cell line: CEM + CEM-SS ; read by: cytopathic effect / XTT ; value: 0.06 µM
Cc1cn([C@H]2C[C@H](N=[N+]=[N-])[C@@H](CO)O2)c(=O)[nH]c1=O ; strain or isolate: Q184/RR (recombinant) ; cell line: HT4LACZ-1 + HT4 LacZ-1 ; read by: plaque count ; value: 2.13 µM
Nc1nc2c(ncn2[C@@H]2O[C@H](CO)[C@@H](O)[C@H]2O)c(=O)o1 ; strain or isolate: IIIB ; cell line: U-937/HIV-1(IIIB) + U-937 ; read by: RT activity ; setting: chronic infection ; value: 27 µg/mL
Cc1ccnc2c1NC(=O)c1cccnc1N2C1CC1 ; strain or isolate: A17 ; changes: K103N + Y181C ; cell line: C8166 ; read by: antigen ; value: 203.4 µM
COCCN1CN2CC(OC)c3c(C(=O)NCc4ccc(F)cc4F)c(=O)c(O)c(n32)C1=O ; strain or isolate: NL4-3 ; cell line: MT4-GFP ; read by: fluorescence ; value: 0.0047 µM
COc1cc2c(OC3OC[C@@H](O)[C@H](OC(=O)N(C)C)[C@H]3O)c3c(c(-c4ccc5c(c4)OCO5)c2cc1OC)C(=O)OC3 ; strain or isolate: NL4-3 ; cell line: 293T ; read by: luciferase ; setting: pseudotyped ; value: >0.0558 µM
Cc1ccnc2c1NC(=O)c1cccnc1N2C1CC1 ; strain or isolate: NNRTI-resistant (RT P225H) ; changes: RT-P225H ; cell line: MAGI ; read by: β-galactosidase ; value: 1.2 µM
Nc1nc2c(ncn2[C@H]2CC[C@@H](CO)C2)c(=O)o1 ; strain or isolate: IIIB ; cell line: U-937/HIV-1(IIIB) + U-937 ; read by: RT activity ; setting: chronic infection ; value: 36 µg/mL
Cc1cn([C@H]2C[C@H](N=[N+]=[N-])[C@@H](CO)O2)c(=O)[nH]c1=O ; strain or isolate: NL4-3 ; cell line: CEM-GFP ; read by: flow cytometry ; value: 0.000523 µM
Cc1cn([C@H]2C[C@H](N=[N+]=[N-])[C@@H](CO)O2)c(=O)[nH]c1=O ; strain or isolate: UC040-R (RT-Y181C) ; changes: RT-Y181C ; cell line: CEM + CEM-SS ; read by: cytopathic effect / XTT ; value: 0.008 µM
C[C@]1(CO)O[C@@H](n2cnc3c(N)nc(F)nc32)C[C@@H]1O ; cell line: HOS ; read by: luciferase ; value: 0.063 µM
Cc1cn([C@H]2C[C@H](N=[N+]=[N-])[C@@H](CO)O2)c(=O)[nH]c1=O ; strain or isolate: IIIB ; cell line: HT4lacZ-1/IIIB + HT4 LacZ-1 ; read by: syncytia ; value: 0.0012 µM
CC(C)=CCOc1cc(NC(=S)c2ccoc2C)ccc1Cl ; strain or isolate: NL4-3 ; changes: (36G)V38E N42S ; cell line: TZM-bl ; read by: luminescence ; value: >2000 µM
O=c1[nH]cnc2c1ncn2[C@H]1CC[C@@H](CO)O1 ; strain or isolate: NL4-3 ; cell line: CEM-GFP ; read by: p24 / ELISA ; value: 0.0275 µM
CC(C)c1nc(CN(C)C(=O)N[C@H](C(=O)N[C@@H](Cc2ccccc2)C[C@H](O)[C@H](Cc2ccccc2)NC(=O)OCc2cncs2)C(C)C)cs1 ; strain or isolate: WOPRO1838 Recombinant ; value: 1.6 µM
O=C(OC[C@H]1O[C@@H](OC(=O)c2cc(O)c(O)c(O)c2)[C@H](O)[C@@H](OC(=O)c2cc(O)c(O)c(O)c2)[C@@H]1O)c1cc(O)c(O)c(O)c1 ; strain or isolate: IIIB ; cell line: MOLT-3 ; read by: syncytia ; value: <33 µg/mL
Nc1nc(N)c2ncn([C@H]3CO[C@@H](CO)O3)c2n1 ; strain or isolate: IIIB ; cell line: CBMC ; read by: RT activity ; value: 0.97 µM
Nc1nc2c(ncn2[C@H]2CC[C@@H](CO)O2)c(=O)o1 ; strain or isolate: IIIB ; cell line: U-937/HIV-1(IIIB) + U-937 ; read by: RT activity ; setting: chronic infection ; value: >100 µg/mL
CC12CCC3C(CCC4CC(O)CCC43C)C1CC(F)C2=O ; strain or isolate: IIIB ; cell line: PBL(PHA-M) + PBL ; read by: p24 / ELISA ; value: 8.8 µM
Nc1ncnc2c1ncn2[C@H]1CC[C@@H](CO)O1 ; strain or isolate: LAV ; cell line: C3 ; read by: p24 ; value: 19 µM
CN(Cc1ccc(F)cc1F)c1ccc(C#N)cn1 ; strain or isolate: NL4-3 ; cell line: HEK 293 ; read by: flow cytometry ; setting: pseudotyped ; value: 7.4 µM
Nc1nc2c(ncn2[C@H]2CO[C@@H](CO)O2)c(=O)[nH]1 ; strain or isolate: HXB2D ; cell line: CBMC ; read by: RT activity ; value: 0.21 µM
Nc1nc2c(ncn2[C@H]2C=C[C@@H](CO)C2)c(=O)[nH]1 ; strain or isolate: LAV ; cell line: C3 ; read by: p24 ; value: 0.37 µM
COc1cc2c(OC3O[C@H](CO)[C@@H]4OC(C)(C)O[C@@H]4[C@H]3O)c3c(c(-c4ccc5c(c4)OCO5)c2cc1OC)C(=O)OC3 ; strain or isolate: NL4-3 ; cell line: 293T ; read by: luciferase ; setting: pseudotyped ; value: >0.0527 µM
C/C=C/CSc1cc(NC(=S)c2ccsc2C)ccc1Cl ; strain or isolate: BaL ; cell line: MAC ; read by: cytopathic effect / XTT ; value: 0.2 µM
O=C1CN=C(c2ccc[nH]2)c2cc(Cl)ccc2N1 ; cell line: HeLa (TAT) + HeLa ; value: ~1 µM
C=CCOC(=O)O[C@@H]1COC(Oc2c3c(c(-c4ccc5c(c4)OCO5)c4cc(OC)c(OC)cc24)C(=O)OC3)[C@H](OC(=O)OCC=C)[C@H]1OC(=O)N(C)C ; strain or isolate: NL4-3 ; cell line: 293T ; read by: luciferase ; setting: pseudotyped ; value: >0.1453 µM
Cc1occc1C(=S)Nc1ccc(Cl)c(/C=N/OC(C)(C)C)c1 ; strain or isolate: NL4-3 (RT K101E) ; changes: RT-K101E ; cell line: CEM + CEM-SS ; read by: cytopathic effect / XTT ; value: 1 µM
Cc1cn([C@H]2C[C@H](N=[N+]=[N-])[C@@H](CO)O2)c(=O)[nH]c1=O ; strain or isolate: PERE98287RT Recombinant ; value: >8 µM
COc1cc2c(OC3O[C@H](C)[C@@H](O)[C@H](OC(=O)C(Cl)(Cl)Cl)[C@H]3O)c3c(c(-c4ccc5c(c4)OCO5)c2cc1OC)C(=O)OC3 ; strain or isolate: NL4-3 ; cell line: 293T ; read by: luciferase ; setting: pseudotyped ; value: >0.5078 µM
Nc1nc2c(ncn2[C@H]2CO[C@@H](CO)O2)c(=O)[nH]1 ; strain or isolate: IIIB ; cell line: CBMC ; value: 0.032 µM
CCc1c(Sc2ccccn2)n(COCc2ccccc2)c(=O)[nH]c1=O ; strain or isolate: UC10-resistant (RT Y181C K101E) ; changes: RT-Y181C K101E ; cell line: CEM + CEM-SS ; read by: cytopathic effect / XTT ; value: >5 µM
COC1CN2CN(CC3CC3)C(=O)c3c(O)c(=O)c(C(=O)NCc4ccc(F)cc4F)c1n32 ; strain or isolate: NL4-3 ; cell line: MT4-GFP ; read by: fluorescence ; value: 0.0014 µM
c1cc(CN2CCCNCCNCCCNCC2)ccc1CN1CCCNCCNCCCNCC1 ; strain or isolate: WOPRO1838 Recombinant ; value: 0.02 µM
Nc1nc2c(ncn2[C@H]2C[C@H](O)[C@@H](CO)O2)c(=O)o1 ; strain or isolate: IIIB ; cell line: U-937/HIV-1(IIIB) + U-937 ; read by: RT activity ; setting: chronic infection ; value: >100 µg/mL
O=C(O)c1cc(O)cc(O)c1N=Nc1ccc(/C=C/c2ccc(N=Nc3c(O)cc(O)cc3C(=O)O)cc2S(=O)(=O)O)c(S(=O)(=O)O)c1 ; strain or isolate: BaL ; cell line: Macrophage ; read by: p24 ; value: 0.3 µg/mL
COCCN1CN2C(=O)OCc3c(-c4cnn(Cc5ccc(F)cc5F)c4)c(=O)c(O)c(n32)C1=O ; strain or isolate: NL4-3 ; cell line: MT4-GFP ; read by: fluorescence ; value: 0.195 µM
Cc1cn([C@H]2C[C@H](N=[N+]=[N-])[C@@H](CO)O2)c(=O)[nH]c1=O ; strain or isolate: Du422.1 ; cell line: TZM-bl ; read by: p24 / ELISA ; value: 0.00696 µM
COc1cc2c(OC3O[C@H](C)[C@@H](O)[C@H](OC(=O)c4ccc(Cl)cc4)[C@H]3O)c3c(c(-c4ccc5c(c4)OCO5)c2cc1OC)C(=O)OC3 ; strain or isolate: NL4-3 ; cell line: 293T ; read by: luciferase ; setting: pseudotyped ; value: >0.3365 µM
Nc1nc2c(ncn2[C@H]2C=C[C@@H](CO)C2)c(=O)o1 ; strain or isolate: IIIB ; cell line: U-937/HIV-1(IIIB) + U-937 ; read by: RT activity ; setting: chronic infection ; value: 41 µg/mL
Nc1nc2c(ncn2COCCO)c(=O)[nH]1 ; strain or isolate: CXCR4-tropic HIV pseudovirus ; changes: T69N ; cell line: PHA-activated CD4+ lymphoblasts ; read by: GFP ; value: 50 µM
O=C1Nc2ccc(Cl)cc2[C@@](C#CC2CC2)(C(F)(F)F)O1 ; strain or isolate: NL4-3 ; cell line: CEM-GFP ; read by: flow cytometry ; value: 0.000008 µM
Nc1nc(N)c2ncn([C@H]3CC[C@@H](CO)O3)c2n1 ; strain or isolate: LAV ; cell line: C3 ; read by: p24 ; value: 17 µM
O=[N+]([O-])c1ccccc1S(=O)(=O)c1ccccc1 ; strain or isolate: RF ; cell line: C-344 ; value: 15.9 µM

4 of the rows above, restated:

| SMILES | strain or isolate | changes | cell line | read by | setting | value |
|---|---|---|---|---|---|---|
| Nc1nc2c(ncn2[C@@H]2O[C@H](CO)[C@@H](O)[C@H]2O)c(=O)o1 | IIIB | - | U-937/HIV-1(IIIB) + U-937 | RT activity | chronic infection | 27 µg/mL |
| Nc1nc2c(ncn2[C@H]2CO[C@@H](CO)O2)c(=O)[nH]1 | IIIB | - | CBMC | - | - | 0.032 µM |
| CC12CCC3C(CCC4CC(O)CCC43C)C1CC(F)C2=O | IIIB | - | PBL(PHA-M) + PBL | p24 / ELISA | - | 8.8 µM |
| CCc1c(Sc2ccccn2)n(COCc2ccccc2)c(=O)[nH]c1=O | UC10-resistant (RT Y181C K101E) | RT-Y181C K101E | CEM + CEM-SS | cytopathic effect / XTT | - | >5 µM |